# Residue numbers refer to the chain shown, from its start.
# B1: ^39KKART-^46ARGRGDNP-^66GLYG (KG-P) (ligand)
# chain: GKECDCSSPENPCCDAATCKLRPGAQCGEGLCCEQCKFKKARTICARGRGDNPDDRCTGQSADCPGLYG
# B2: ^39KKART-^46 ARGRGDNP-^66YLYG (ligand)
# chain: B1 chain with G66Y
# B3: ^39KKART-^46 ARGRGDNP-^66DLYG (ligand)
# chain: B1 chain with G66D
# B4: ^39KKART-^46 ARGRGDNP-^66ELYG (ligand)
# chain: B1 chain with G66E
# B5: ^39KKART-^46ARGRGDNP-^66RWNDL (KG-WN) (ligand)
# chain: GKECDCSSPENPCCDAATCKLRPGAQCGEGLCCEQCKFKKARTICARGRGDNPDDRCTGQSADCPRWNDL
# B6: ^39KKART-^46ARGRGDNP-^66RYH (KG, AR-NP) (ligand)
# chain: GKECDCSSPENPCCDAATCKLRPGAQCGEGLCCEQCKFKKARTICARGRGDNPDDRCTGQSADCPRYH
# B7: ^39SRAG^43K-^48ARGDN^53P-^67Y^68H (ligand)
# chain: B6 chain with K39S, K40R, R42G, T43K, A46R, R47I, G48A
# B8: 39IEEGT-^48ARGDN^53P-^67NGLY^71G (ligand)
# chain: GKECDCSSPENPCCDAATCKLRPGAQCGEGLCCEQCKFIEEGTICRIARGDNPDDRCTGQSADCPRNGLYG
# B9: 39MKKGT-^48ARGDN^53P-^67NGLY^71G (ligand)
# chain: B8 chain with I39M, E40K, E41K
# B10: 39LKEGT-^48ARGDN^53P-^67NGLY^71G (ligand)
# chain: B8 chain with I39L, E40K
# B11: ^39KKKRTICR-^47RARGDN^53P-^67NGLY^71G (ligand)
# chain: B8 chain with I39K, E40K, E41K, G42R, I47R
# B12: ^39SKAGT^43-^48ARGDN^53P-^67NGLY^71G (ligand)
# chain: B8 chain with I39S, E40K, E41A
# B13: ^9KKKRT-^46ARARGDN^53P-^67NGLY^71G (ligand)
# chain: B8 chain with I39K, E40K, E41K, G42R, R46A, I47R
# B14: 39KKKRT-^48ARGDN^53P-^67NGLY^71G (ligand)
# chain: B8 chain with I39K, E40K, E41K, G42R
# B15: ^39SRAGKICR-^47RARGDN^53P-^67NGLY^71G (ligand)
# chain: B8 chain with I39S, E40R, E41A, T43K, I47R
# B16: ^39KAKRA^43-^48ARGDN^53P-^67NGLY^71G (ligand)
# chain: B8 chain with I39K, E40A, E41K, G42R, T43A
# B17: KKK^42A^43T-^48ARGDN^53P-^67NGLY^71G (ligand)
# chain: B8 chain with I39K, E40K, E41K, G42A
# B18: K^40AKR^43T-^48ARGDN^53P-^67NGLY^71G (ligand)
# chain: B8 chain with I39K, E40A, E41K, G42R
# B19: KKKR^43A-^48ARGDN^53P-^67NGLY^71G (ligand)
# chain: B8 chain with I39K, E40K, E41K, G42R, T43A
# B20: ^39AKKR^34T-^48ARGDN^53P-^67NGLY^71G (ligand)
# chain: B8 chain with I39A, E40K, E41K, G42R
# B21: 39SRAGK-^48ARGDN^53P-^67NGLY^71G (ligand)
# chain: B8 chain with I39S, E40R, E41A, T43K
# B22: Disintegrin variant SEQ ID NO: 128 (Table 8 no. 2) (ligand)
# chain: B6 chain with K39S, K40R, R42G, T43K, A46R, R47I, G48A
# B23: Disintegrin variant SEQ ID NO: 129 (Table 8 no. 3) (ligand)
# chain: B6 chain with A41K, A46R, R47I, G48A
# B24: Disintegrin variant SEQ ID NO: 347 (Table 8 no. 4) (ligand)
# chain: B8 chain with I39S, E40R, E41A, T43K
# B25: Disintegrin variant Table 8 no. 19 (printed SEQ ID NO: 130; linker SRAGK) (ligand)
# chain: B8 chain with I39S, E40R, E41A, T43K, I47R
# B26: Disintegrin variant SEQ ID NO: 139 (Table 8 no. 9) (ligand)
# chain: B8 chain with I39K, E40A, E41K, G42R
# B27: Disintegrin variant SEQ ID NO: 143 (Table 8 no. 13) (ligand)
# chain: B8 chain with I39K, E40A, E41K, G42R, T43A
# B28: Disintegrin variant SEQ ID NO: 134 (Table 8 no. 18) (ligand)
# chain: B8 chain with I39M, E40K, E41K
# B29: Disintegrin variant SEQ ID NO: 132 (Table 8 no. 7) (ligand)
# chain: B8 chain with I39K, E40K, E41K, G42R, I47R
# B30: Disintegrin variant SEQ ID NO: 136 (Table 8 no. 16) (ligand)
# chain: B8 chain with I39K, E40G, E41A, T43K
# B31: Disintegrin variant SEQ ID NO: 140 (Table 8 no. 10) (ligand)
# chain: B8 chain with I39K, E40K, E41A, G42R
# B32: Disintegrin variant Table 8 no. 20 (printed SEQ ID NO: 132) (ligand)
# chain: B8 chain with I39K, E40K, E41K, G42R, I47R
# B33: Disintegrin variant SEQ ID NO: 131 (Table 8 no. 5 and no. 21) (ligand)
# chain: B8 chain with I39K, E40K, E41K, G42R
# B34: Disintegrin variant SEQ ID NO: 137 (Table 8 no. 17) (ligand)
# chain: B8 chain with I39L, E40K
# B35: Disintegrin variant SEQ ID NO: 135 (Table 8 no. 15) (ligand)
# chain: B8 chain
# B36: Disintegrin variant SEQ ID NO: 138 (Table 8 no. 8) (ligand)
# chain: B8 chain with I39A, E40K, E41K, G42R
# B37: Disintegrin variant SEQ ID NO: 141 (Table 8 no. 11) (ligand)
# chain: B8 chain with I39K, E40K, E41K, G42A
# B38: Disintegrin variant SEQ ID NO: 142 (Table 8 no. 12) (ligand)
# chain: B8 chain with I39K, E40K, E41K, G42R, T43A
# B39: Disintegrin variant SEQ ID NO: 144 (Table 8 no. 14) (ligand)
# chain: B8 chain with I39S, E40K, E41A
# B40: Disintegrin variant SEQ ID NO: 130 (Table 8 no. 6) (ligand)
# chain: B8 chain with I39S, E40R, E41A, T43K, I47R
# B41: ^39KKART-^46ARGRGDDL-^66GLYG (ligand)
# chain: B1 chain with N52D, P53L
# B42: ^39SRAGK-^46RIARGDDL-^66RYH (ligand)
# chain: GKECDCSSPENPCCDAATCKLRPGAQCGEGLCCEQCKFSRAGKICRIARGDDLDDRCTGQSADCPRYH
# Molecular target: T1, integrin αIIbβ3 on platelets of healthy donors (UniProt P08514 32-1039; P05106 27-788)
# Assay: cell-based or functional assay
row,Binder,"IC50, Platelet Aggregation"
1,B1,35300 nM
2,B2,30300 nM
3,B3,84700 nM
4,B4,46100 nM

# Molecular target: T2, integrin αvβ6 on HT-29 cells (human, UniProt P06756 31-1048; P18564 22-788)
# Assay: cell-based or functional assay
row,Binder,"IC50, adhesion of HT-29 cells to fibronectin"
1,B3,2000 nM

# Molecular target: T1, integrin αIIbβ3 on platelets of healthy …
# Assay: cell-based or functional assay
# Remark: another data set of the same source
row,Binder,"IC50, Platelet Aggregation"
1,B5,4530 nM
2,B1,35300 nM
3,B6,4480 nM

# Molecular target: T3, integrin αvβ3 on CHO-αvβ3 cells (UniProt P06756 31-1048; P05106 27-788)
# Assay: cell-based or functional assay
row,Binder,"IC50, adhesion of CHO-αvβ3 cells to fibrinogen"
1,B6,5 nM

# Molecular target: T4, integrin α5β1 on K562 cells (human, UniProt P08648 42-1049; P05556 21-798)
# Assay: cell-based or functional assay
row,Binder,"IC50, adhesion of K562 cells to fibronectin"
1,B6,28.8 nM

# Molecular target: T2, integrin αvβ6 on HT-29 cells
# Assay: cell-based or functional assay
# Remark: another data set of the same source
row,Binder,"IC50, adhesion of HT-29 cells to fibronectin"
1,B5,108 nM
2,B6,317 nM

# Molecular target: integrin αIIbβ3 on CHO-αIIbβ3 cells (UniProt P08514 32-1039; P05106 27-788)
# Assay: cell-based or functional assay
row,Binder,"IC50, adhesion of CHO-αIIbβ3 cells to fibrinogen"
1,B5,28000 nM
2,B6,37900 nM

# Molecular target: integrin αvβ5 on HT-29 cells (human, UniProt P06756 31-1048; P18084 24-799)
# Assay: cell-based or functional assay
row,Binder,"IC50, adhesion of HT-29 cells to vitronectin"
1,B5,43.7 nM
2,B6,446 nM

# Molecular target: T1, integrin αIIbβ3 on platelets of healthy …
# Assay: cell-based or functional assay
# Remark: another data set of the same source
row,Binder,"IC50, Platelet Aggregation"
1,B7,125 nM
2,B8,206 nM
3,B9,178 nM
4,B10,188 nM
5,B11,154 nM
6,B12,175 nM
7,B13,148 nM
8,B14,160 nM
9,B15,234 nM
10,B16,157 nM
11,B17,141 nM
12,B18,190 nM
13,B19,192 nM
14,B20,132 nM
15,B21,195 nM

# Molecular target: T3, integrin αvβ3 on CHO-αvβ3 cells
# Assay: cell-based or functional assay
# Remark: another data set of the same source
row,Binder,"IC50, adhesion of CHO-αvβ3 cells to fibrinogen"
1,B9,4 nM

# Molecular target: T4, integrin α5β1 on K562 cells
# Assay: cell-based or functional assay
# Remark: another data set of the same source
row,Binder,"IC50, adhesion of K562 cells to fibronectin"
1,B7,40 nM

# Molecular target: integrin αIIbβ3 on platelets of healthy donors (platelet-rich plasma) (UniProt P08514 32-1039; P05106 27-788)
# Assay: cell-based or functional assay
row,Binder,"Platelet Aggregation, IC50"
1,B22,125 nM
2,B23,88.2 nM
3,B24,195 nM
4,B25,200 nM
5,B26,190 nM
6,B27,157 nM
7,B28,178 nM
8,B29,154 nM
9,B30,176 nM
10,B31,158 nM
11,B32,148 nM
12,B33,160 nM
13,B34,188 nM
14,B35,206 nM
15,B36,132 nM
16,B37,141 nM
17,B38,192 nM
18,B39,175 nM
19,B40,234 nM

# Molecular target: integrin αvβ3 (on CHO-αvβ3 cells) (UniProt P06756 31-1048; P05106 27-788)
# Assay: cell-based or functional assay
row,Binder,"IC50, adhesion of CHO-αvβ3 cells to fibrinogen"
1,B28,4 nM

# Molecular target: integrin α5β1 (on K562 cells) (human, UniProt P08648 42-1049; P05556 21-798)
# Assay: cell-based or functional assay
row,Binder,"IC50, adhesion of K562 cells to fibronectin"
1,B22,40 nM
2,B23,10 nM

# Molecular target: T1, integrin αIIbβ3 on platelets of healthy …
# Assay: cell-based or functional assay
# Remark: another data set of the same source
row,Binder,"IC50, Platelet Aggregation"
1,B41,47300 nM
2,B42,455 nM

# Molecular target: T1, integrin αIIbβ3 on platelets of healthy …
# Assay: cell-based or functional assay
# Remark: another data set of the same source
row,Binder,"IC50, Platelet Aggregation"
1,B1,35300 nM

# From patent US20200010516A1 (NATIONAL CHENG KUNG UNIVERSITY, published 2020)
